Assay results reported in PMC6498484.
For some assays here: Where a protein sequence is shown, tags need not be part of it. For some assays here: For at least one entry, the source does not settle the construct or the ends of the probe. For some assays here: At least one verdict rests on a figure or table, not on a statement of the authors.

Key:
Assay in all cases: EMSA
[1] = target: T1, PoxCxrA17-150 (Penicillium oxalicum HP7-1) (UniProt A0A2H4WV05); conditions: EMSA: 20 mM Tris-HCl pH 8.0, 50 mM KCl, 0.1 mg/mL BSA, 5% glycerol, 1 mM DTT, 1 ug salmon sperm DNA, ~50 ng probe, 30 min at 30 C, footprinting at 30 C, recombinant protein, residues 17-150, protein details: N-terminal Trx-His-S (pET32a), probe letters rebuilt from the primers and the genome
T1 sequence (looked up): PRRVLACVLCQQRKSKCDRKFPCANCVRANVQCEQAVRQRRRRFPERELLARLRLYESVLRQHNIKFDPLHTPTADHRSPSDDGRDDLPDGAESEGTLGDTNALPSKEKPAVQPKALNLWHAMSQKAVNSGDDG

[2] = target: T2, PoxClrB1-120 (Penicillium oxalicum HP7-1) (UniProt A0A1C9J6R8); conditions: EMSA: 20 mM Tris-HCl pH 8.0, 50 mM KCl, 0.1 mg/mL BSA, 5% glycerol, 1 mM DTT, 1 ug salmon sperm DNA, ~50 ng probe, 30 min at 30 C; footprinting at 30 C; recombinant protein; residues 1-120; protein details: Trx-His-S (pET32a); label: 6-FAM; probe letters rebuilt from the primers and the genome
T2 sequence (looked up): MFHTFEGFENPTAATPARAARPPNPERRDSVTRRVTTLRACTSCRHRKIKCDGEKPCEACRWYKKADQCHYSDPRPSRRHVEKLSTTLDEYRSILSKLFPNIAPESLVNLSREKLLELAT

[3] = target: T3, PoxCxrA11-58 (Penicillium oxalicum HP7-1) (UniProt A0A2H4WV05); conditions: EMSA: 20 mM Tris-HCl pH 8.0, 50 mM KCl, 0.1 mg/mL BSA, 5% glycerol, 1 mM DTT, 1 ug salmon sperm DNA, ~50 ng probe, 30 min at 30 C; footprinting at 30 C; recombinant protein; residues 11-58; protein details: Trx-His-S (pET32a); label: 6-FAM; probe letters rebuilt from the primers and the genome
T3 sequence (looked up): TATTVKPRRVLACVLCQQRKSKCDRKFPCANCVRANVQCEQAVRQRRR

[4] = system: PoxCxrA17-150 + PoxClrB1-120; conditions: both proteins, larger complex than either alone; EMSA: 20 mM Tris-HCl pH 8.0, 50 mM KCl, 0.1 mg/mL BSA, 5% glycerol, 1 mM DTT, 1 ug salmon sperm DNA, ~50 ng probe, 30 min at 30 C; footprinting at 30 C; recombinant protein; protein details: N-terminal Trx-His-S (pET32a),Trx-His-S (pET32a); label: 6-FAM; probe letters rebuilt from the primers and the genome
[5] = target: T4, PoxCxrA11-150 (Penicillium oxalicum HP7-1) (UniProt A0A2H4WV05); conditions: EMSA: 20 mM Tris-HCl pH 8.0, 50 mM KCl, 0.1 mg/mL BSA, 5% glycerol, 1 mM DTT, 1 ug salmon sperm DNA, ~50 ng probe, 30 min at 30 C; footprinting at 30 C; recombinant protein; residues 11-150; protein details: Trx-His-S (pET32a); label: 6-FAM; probe letters rebuilt from the primers and the genome
T4 sequence (looked up): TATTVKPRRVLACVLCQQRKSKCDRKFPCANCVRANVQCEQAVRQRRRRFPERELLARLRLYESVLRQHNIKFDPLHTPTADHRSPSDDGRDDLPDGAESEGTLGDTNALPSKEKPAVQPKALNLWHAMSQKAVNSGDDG

Row | Sequence | binding result ([1]; label: 6-FAM) | binding result ([1]; label: 5' 6-FAM) | also measured
1 | AAGATGTGAGAAGGACCGTGATCCAGTCAGGAAAGAAGACCAGGACTCGAATGTATAGATGGGTTGAGAGTGGTGGAAGGAGGTCCAAGTAAAAATGTCTCAAAAAGAGCACTGCGCTGCAGATAAGACTCTTATTCGTGAAGAGAGATCGATGATAGAGAGAGAGATGATCAAGGAAACAACGTTGGAGGGGGACTTCCACGAGGTTTTAATACTCCAGAATTTGGGCCAAAAAAAAAGTTCAATTCCACCACAGCCCCCTCAAAAAGTTCCAAAAATCGAGAAAATAAAAATAAAAAAAATCCGACTACACAACTTCTCCTCAACTCCACGAACAACGTGGGTGAAAAGCACGACGGCCACCCCGGGGGGCCCCAAAGTGACCGAAACCAGAAAAACCAGAACAGCCTCGAAGCGTCTCCGCAATGCCCGCAATCCCCAGTTTCCATGACCGGCCCAACACGAGCGGACATCGAGTGGAGACTCCATACGACACCGATACAGTCGGTATGATTTCTCGGGGTCCATCGATTCCATACCGAGTGGATCATGTCGACCATTACACCGGATGATACACTGACCAGGTCACATGAGAGAGGAGAGCTATTGTTAGCCCCGTCGCCAGAGCGAAAGTGTGGAGTGTGCGAACCAGCCAAAGATGGACATCAGCCACTCTGATGGCCGGTCACGCCGTCCCCGACTGGCCGAGTGGAGCCGAGTTTCACAGCTCCCAGGAAAAAAAAACACGAAATACACAAAAAAAATCAAAAATACACAAATGGTCCAGAAGACTGATCAAAGGCCAGACCGTGCGAAGAAAAGATCCTATCAAAGCCTCTGCCTCGTGCGGGCTCACCAACGCCGTAGAGGGTCAACATTCCGCAAGCA (double strand) [POX07576/RCO-3 promoter] | binds |  | 
2 | AGGAGACGAACAAATGAAAAACAGTTGGCCAACAATTCAACCAAGACCGGCTTCCCTGGAATTGCGGGGAGGGGAGAGTCGTGAAAGTGGATAAGGCTCCTTAATTTTTTTTTTCCCTTCCTCCTGGCCATCGTGTTTTATGGAGGTTCGCTTCCGTCTTGACTATCCGCCGTCGCACTCTTAGTCTCCCCGTTGACCCTCTTTTTCTTCACATCGTCAGATCGTGATCGTTGATCGTTCGGTGCTCTTCTGCTTCTTTTGCTGCTCACCTCCTCCTCCCCCCAGCTGAGTCCTTGTCGAGCTCATCCAC (double strand) [PoxClrB-310] |  | binds | 
3 | AGGAGACGAACAAATGAAAAACAGTTGGCCAACAATTCAACCAAGACCGGCTTCCCTGGAATTGCGGGGAGGGGAGAGTCGTGAAAGTGGATAAGGCTCCTTAATTTTTTTTTTCCCTTCCTCCTGGCCATCGTGTTTTATGGAGGTTCGCTTCCGTCTTGACTATCCGCCGTCGCACTCTTAGTCTCCCCGTTGACCCTCTTTTTCTTCACATCGTCAGATCGTGATCGTTGATCGTTCGGTGCTCTTCTGCTTCTTTTGCTGCTCACCTCCTCCTCCCCCCAGCTGAGTCCTTGTCGAGCTCATCCACATCAAGCAACCCTGGTGGAG (double strand) [PoxClrB-330] |  | binds | 
4 | AGGAGACGAACAAATGAAAAACAGTTGGCCAACAATTCAACCAAGACCGGCTTCCCTGGAATTGCGGGGAGGGGAGAGTCGTGAAAGTGGATAAGGCTCCTTAATTTTTTTTTTCCCTTCCTCCTGGCCATCGTGTTTTATGGAGGTTCGCTTCCGTCTTGACTATCCGCCGTCGCACTCTTAGTCTCCCCGTTGACCCTCTTTTTCTTCACATCGTCAGATCGTGATCGTTGATCGTTCGGTGCTCTTCTGCTTCTTTTGCTGCTCACCTCCTCCTCCCCCCAGCTGAGTCCTTGTCGAGCTCATCCACATCAAGCAACCCTGGTGGAGACCGGGTCCTCTTCTCCACCATCCA (double strand) [PoxClrB-355] |  | binds | 
5 | AGGAGACGAACAAATGAAAAACAGTTGGCCAACAATTCAACCAAGACCGGCTTCCCTGGAATTGCGGGGAGGGGAGAGTCGTGAAAGTGGATAAGGCTCCTTAATTTTTTTTTTCCCTTCCTCCTGGCCATCGTGTTTTATGGAGGTTCGCTTCCGTCTTGACTATCCGCCGTCGCACTCTTAGTCTCCCCGTTGACCCTCTTTTTCTTCACATCGTCAGATCGTGATCGTTGATCGTTCGGTGCTCTTCTGCTTCTTTTGCTGCTCACCTCCTCCTCCCCCCAGCTGAGTCCTTGTCGAGCTCATCCACATCAAGCAACCCTGGTGGAGACCGGGTCCTCTTCTCCACCATCCATAGTGCCGAGTCCAACCCTC (double strand) [PoxClrB-375] |  | binds | 
6 | CACTGTGTAGCAGCATATCGAAGAAGCTGGCCATCCAGCCGGGGATTAGCAAGTTCGCGACTGCAGTGATCGGGGGTTAGAAAGTGCGAGTACCAGGATGCAAACGTGGTTCGTCGGTCTTTCTAAAACCCGCCTGTCCCCCCGCCCCCACACTCTATGGTACACTTGCCCTTTCATTCATTCTTTCTTCCTTTCTTTCCTTTTTTTTTCCGCCCAAAATCCTCGGGCTTCGGGCACTCGGACTCAGGAGCAACTCTTCTATCCCGTAGTCAATCACTTAATCACTTGCAACTGGATCAATAGTTTCTCAAGTCGTCGGC (double strand) [PoxCxrA promoter 300 bp] | binds |  | 
7 | GAGAGATCCACTACCCGCAAAATCTGGGGAGCTTCCTCCGTGTCCGCGGAGTGCGTGCTGGCAGGCATTCCATTTTCGTGCATGACTGAGATGAACTTCACCCCCTGGGGCTATGCACAGTGGTGCGGACCGCCACGCCGTGGATGTCCATCCCAAAAGGAAATCAGTCGAGAGGCGAATTGCTTCAGGATCCACCCAAGGAAGCAACTATATAAGAAGAGGTGCCATCACCTCGACTCTGGTGTTCATCATCCATTCCTTCCTCATCTCCTCCACCACCCCCCTTTCATCAGATCCTCAAAGAACAAAATTGATCATCATCTCTTTTGATCTTTGATCCAATCCATCACA (double strand) [POX05587/Cel7A-2 promoter 300 bp] | binds |  | binding result [2]: binds; binding result [3]: binds; binding result [4]: binds; binding result [5]: binds
